# Measured values taken from PubChem BioAssay AID720488 (Milwaukee Institute for Drug Discovery, 2013).
# This is a selection; strong and weak results do not stand in their true shares. Calls of active or inactive are those of the source.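 How the source made its calls: active means compound fluorescence over control fluorescence at most 0.8, a quencher, or at least a set upper limit, an enhancer; inactive means ratio between 0.8 and the set upper limit.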
# Test: Cy5 fluorescence quenchers or enhancers, artefact control for HCV NS3 helicase inhibitor project, biochemical, ChemBridge library, Cy5 readout (AID 720488)
# Conditions: Cy5-dT15 DNA with NS3h, at 100 µM, actives lie on both sides, signal over control mean, under 1 quenches
row,SMILES,fluorescence interference ratio
1,CP(=O)(Oc1ccc(Cl)cc1)Oc1ccc(Cl)cc1,inactive: 0.895
2,CP(=O)(Oc1ccccc1)Oc1ccccc1,inactive: 0.901
3,CP(=O)(Oc1ccccc1F)Oc1ccccc1F,inactive: 0.914
4,CN(C)CCOC(=O)C(O)(c1ccccc1)c1ccccc1,active: 1.23
5,CCc1ccc(OP(C)(=O)O)cc1,inactive: 1.12
6,CP(=O)(Oc1ccc(F)cc1)Oc1ccc(F)cc1,inactive: 1.03
